Data source: PubChem BioAssay AID1259414 (Drosophila RNAi Screening Center, 2018)

- Screen: 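Genome-wide screen for host control of endosymbiont load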 (primary screen)
- System: Drosophila JW18 cells infected with Wolbachia
- Reagents: long dsRNA against Drosophila genes, 0.25 µg dsRNA per well of a 384-well plate
- Time to read-out: 5 days
- Treatment: cells persistently infected with Wolbachia before knock-down; no added drug
- Measured: 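Automated imaging of bacterial rRNA staining divided by host cell count, reported as plate-normalised robust z-score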
- Direction: Wolbachia per cell robust z: higher = more Wolbachia per host cell than the plate typical
- Call rule: 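Active if absolute robust z reaches 1.5 in two or more of three replicates, leaving out multi- or no-target dsRNAs, genes unexpressed in JW18 and A1 wells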
The deposit covers about 24,000 reagents; this is a random part of those with a known target gene and a result. Over the whole deposit, about 1,210 (5%) were called active. 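Inactive calls also include excluded dsRNAs with several or no targets, genes unexpressed in JW18, and well A1, regardless of score.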 Reagents against one gene are numbered here. Names joined by + are all predicted targets of the reagent. No sequences are given here.

Gene | reagent no. | Wolbachia per cell robust z, rep 1 | Wolbachia per cell robust z, rep 2 | Wolbachia per cell robust z, rep 3 | Call
cdi | 1 | -0.104 | 0.0157 | 1.7 | inactive
cdi | 2 | -1.14 | -0.111 | -1.56 | inactive
spd-2 | 1 | -1.05 | -0.59 | -1.59 | inactive
spd-2 | 2 | 0.216 | -1.72 | -0.681 | inactive
Mst57Db | 1 | 0.914 | -0.352 | 0.277 | inactive
CG14667 | 1 | 0.977 | -0.305 | 0.312 | inactive
CG14667 | 2 | 0.711 | -0.736 | -0.413 | inactive
CG4053 | 1 | -0.21 | 0.827 | 1.14 | inactive
CG4053 | 2 | 0.741 | 1.26 | 0.444 | inactive
CG10431 | 1 | -0.441 | 0.683 | 0.352 | inactive
jvl | 1 | 0.984 | 2.31 | 2.93 | active
jvl | 2 | -0.595 | 0.284 | -4.77 | inactive
jvl | 3 | 0.771 | 1.17 | 1.81 | inactive
jvl | 4 | 0.75 | -2.05 | 1.1 | inactive
rols | 1 | 0.34 | -0.898 | -0.14 | inactive
rols | 2 | -0.544 | -0.183 | 0.415 | inactive
rols | 3 | -0.837 | -1.93 | -3.95 | active
rols | 4 | 1.31 | -0.0342 | -1.46 | inactive
CG7606 | 1 | 0.452 | 1.58 | 0.656 | inactive
FRG1 | 1 | -1.51 | -0.0846 | 0.0716 | inactive
CG14455 | 1 | 0.731 | -0.865 | 0.702 | inactive
CG14455 | 2 | -0.19 | -0.468 | 0.233 | inactive
ric8a | 1 | -2.49 | -5.96 | -0.00825 | active
ric8a | 2 | 0.0964 | -7.31 | 1.39 | inactive
Toll-9 | 1 | 0.516 | 0.376 | -0.145 | inactive
Nepl7 | 1 | 0.856 | 0.467 | 1.01 | inactive
Nepl7 | 2 | 0.964 | 0.295 | 0.0897 | inactive
spok | 1 | -6.1 | -6.24 | -0.0915 | inactive

Single entries from above:
Result for jvl #2 in “Wolbachia per cell robust z, rep 1”: -0.595
For “Wolbachia per cell robust z, rep 3”, CG7606 reads 0.656
Entry of rols #1 under “Call”: inactive
cdi #1, Wolbachia per cell robust z, rep 1: -0.104
CG14667 #1, Wolbachia per cell robust z, rep 3 → 0.312
Result for Nepl7 #2 under “Call”: inactive

More results:
Gene | reagent no. | Wolbachia per cell robust z, rep 1 | Wolbachia per cell robust z, rep 2 | Wolbachia per cell robust z, rep 3 | Call
CG34212 | 1 | 0.212 | 0.206 | 0.763 | inactive
CG6041 | 1 | -0.0352 | -1.62 | -0.784 | inactive
CG6041 | 2 | -0.214 | -0.532 | 0.785 | inactive
Kdsr | 1 | -1.06 | 0.443 | -1.42 | inactive
Ir54a | 1 | 0.292 | 1.81 | -0.613 | inactive
Or67d | 1 | -0.31 | 0.313 | -0.208 | inactive
CG8641 | 1 | -0.176 | 1.28 | 0.726 | inactive
cype | 1 | 0.335 | 1.94 | -0.289 | inactive
ppk28 | 1 | 0.366 | -0.763 | -3.92 | inactive
CG12517 | 1 | 0.841 | 0.475 | 1.24 | inactive
CG11151 | 1 | 0.708 | -0.481 | 1.26 | inactive
CG13131 | 1 | 0.562 | 0.995 | 0.134 | inactive
Eno | 1 | 0.935 | 0.139 | 1.09 | inactive
CG2006 + Spase12 | 1 | -4.7 | -1.16 | -3.32 | inactive
Or69a | 1 | -0.448 | 0.0134 | 0.738 | inactive
Or69a | 2 | 0.244 | 0.06 | 0.0586 | inactive
HBS1 | 1 | 0.325 | 0.678 | 0.445 | inactive
HBS1 | 2 | -1.44 | -0.793 | -1.23 | inactive
